Laboratory results taken from patent publication US10456414B2, “Methods for treating HCV” (priority 2011, dated 2019).
“And” between values parts separate entries of the source, which are not always exact repeats. Equal entries are not always repeated.

Key:
[1] = tested on: HCV genotype 1b replicon cells (Huh-luc); experiment: Antiviral combination study, MacSynergy II (Biological Example 1)
[2] = tested on: HCV genotype 1b replicon cells (Huh-luc); experiment: Antiviral combination studies with Compound 3, MacSynergy II; settings: for Synergy Volume / Antagonism Volume: in combination with Compound 3, mean ± standard deviation; for Interaction: in combination with Compound 3

Compound: Fc1ccccc1-c1nc2ccn(Cc3ccc(-c4ccc(C(F)(F)F)cc4C(F)(F)F)nn3)cc-2n1 [Compound 1, 5-((6-(2,4-bis(trifluoromethyl)phenyl)pyridazin-3-yl)methyl)-2-(2-fluorophenyl)-5H-imidazo[4,5-c]pyridine]
- Interaction ([1]; in combination with Compound 2): Additive (Additive if volumes are >−50 nM^2 and ≤50 nM^2)
- Antagonism Volume ([1]; in combination with Compound 2, mean ± standard deviation): 0.07 ± 0.07 nM^2
- Synergy Volume [2]: 14.5 nM^2

Compound: NC(=O)c1ncn([C@@H]2O[C@H](CO)[C@@H](O)[C@H]2O)n1 [Ribavirin, 1-β-D-ribofuranosyl-1H-1,2,4-Triazole-3-carboxamide, reference compound]
- Interaction [2]: Moderate synergy (Moderate synergy if volumes are >50 and ≤100 nM^2)
- Antagonism Volume [2]: 1.6 ± 2.3 nM^2
- Synergy Volume [2]: 54 ± 14.1 nM^2

Compound: IFN-α
- Interaction [2]: Minor synergy (Minor synergy if volumes are >25 and <50 nM^2)
- Antagonism Volume [2]: 0.15 ± 0.2 nM^2
- Synergy Volume [2]: 32 nM^2 and 32 ± 4.2 nM^2
